A mixed list of measured activities; the numbers were collected in NIAID ChemDB.

All rows: tests in culture; agent: HIV-1

Rows are shuffled and stem from different studies.

structure	read-out	read by	strain	cell line	setting	mutations	result
Nc1ccn([C@H]2CC[C@@H](CO)O2)c(=O)n1	EC50	cytopathic effect / XTT	IIIB	MT-2	-	-	0.13–0.79 µg/mL
CC(C)C1=C2[C@H]3CC[C@@H]4[C@@]5(C)CC[C@H](OC(=O)[C@H]6C[C@@H](C(=O)O)C6(C)C)C(C)(C)[C@@H]5CC[C@@]4(C)[C@]3(C)CC[C@@]2(CCNCC2(N)CC2)CC1=O	EC50	p24 / ELISA	92HT599	MT-2	-	-	<1 µM
CC1(C)C=Cc2c(O)c(C(=O)c3ccccc3)c3oc(=O)cc(-c4ccccc4)c3c2O1	EC50	cytopathic effect	RF	CEM + CEM-SS	-	-	13 µg/mL
CCOP(=O)(OCC)C(NC(=O)c1ccccc1)C(C(=O)N[C@H](CO)Cc1ccccc1)C(=O)N[C@H](CO)Cc1ccccc1	EC50	XTT	LAI/3B	CEM	-	-	53 µM
CCOC(=O)c1cc(C(=O)c2cccc(N)c2)n2ccc(C(=O)NCc3ccccn3)cc12	EC50	p24 / antigen	-	H9	-	-	22.3 µM
C[C@@]1(O)[C@H](O)[C@@H](CO)O[C@H]1n1cnc2c(=N)n(N)[nH]c(=O)c21	EC90	ELISA	LAI	-	-	-	>100 µM
CC(C)OC(=S)Nc1ccc(Cl)c(/C=N/OC(C)(C)C)c1	EC50	cytopathic effect / XTT	IIIB	CEM + CEM-SS	-	-	0.4 µM
Cc1cn([C@H]2C[C@H](N=[N+]=[N-])[C@@H](COC(=O)OC[C@@H]3O[C@H]3CO)O2)c(=O)[nH]c1=O	EC50	ELISA	BaL	PBMC	-	-	0.066 µM
C/C(=N\Nc1nc(-c2ccc(Br)cc2)cs1)c1ccc(-n2ccnc2)cc1	EC50	MTT	IIIB	MT-4	-	-	>87.33 µM
O=C1CSC(c2c(Cl)cccc2Cl)N1Cc1ccco1	EC50	cytopathic effect / MTT	IIIB	MT-4	-	-	0.204 µM
CCCCCCN1C(=O)N(Cc2ccc3[nH]nc(N)c3c2)[C@H](Cc2ccccc2)[C@H](O)[C@@H](O)[C@H]1Cc1ccccc1	EC50	-	RF	MT-2	-	-	<0.756 µM
C#Cc1ccc(Nc2nccc(Oc3c(C)cc(-c4cn(Cc5ccc(C(=O)OC)cc5)nn4)cc3C)n2)cc1	EC50	MTT	IIIB	MT-4	-	L100I	1.86 µM
C/C(=N\Nc1nc(-c2ccc(C#N)cc2)cs1)c1ccc(-n2ccnc2)cc1	EC50	MTT	IIIB	MT-4	-	-	>73.95 µM
COc1ccc2c(c1O)-c1c(O)c(OC)cc3c1[C@H](C2)[N+](C)(C)CC3	EC50	cytopathic effect / XTT	RF	CEM + CEM-SS	-	-	25–50 µg/mL
NC(=O)c1cc2c([nH]c3ccccc32)c(-c2ccc(CO)o2)n1	EC50	p24	KM018 Clinical isolate	PBMC	-	-	0.77 µM
CCOC(=O)c1cc(C(=O)NCc2cccnc2)n2ccc(C(=O)c3ccco3)cc12	EC50	p24 / antigen	-	H9	-	-	55.2 µM
C[C@@]1(O)[C@H](O)[C@@H](CO)O[C@H]1n1cnc2c(N)nc(N=[N+]=[N-])nc21	EC90	ELISA	LAI	-	-	-	>100 µM
O=c1[nH]c(=O)n([C@H]2CCC[C@@H]2CO)cc1I	EC50	cytopathic effect	-	CEM	-	-	>100 µg/mL
Cc1occc1C(=S)Nc1ccc(Cl)c(C(=O)OC(C)C)c1	EC50	cytopathic effect / XTT	NL4-3	CEM + CEM-SS	-	RT-V108I	0.09 µM
Nc1ncnc2c1ncn2[C@H]1C=C[C@@H](OCP(=O)(O)O)O1	EC50	ELISA	LAI	MT-4	-	-	1.4 µM
[2H]C([2H])(CNC(=O)c1ccc(Cl)cc1)NC(=O)C[C@@]12CC[C@]3(C)[C@H](CC[C@@H]4[C@@]5(C)CC[C@H](OC(=O)[C@H]6C[C@@H](C(=O)O)C6(C)C)C(C)(C)[C@@H]5CC[C@]43C)C1=C(C(C)C)C(=O)C2	EC50	p24 / ELISA	92HT599	MT-2	-	-	<1 µM
COC(=O)[C@H](Cc1ccccc1)NC(=O)[C@H]1/C(=C/CO)O[C@@H]2CC(=O)N21	EC50	cytopathic effect / XTT	IIIB	CEM	-	-	18 µg/mL
CCOC(=O)c1cc(C(=O)c2ccccc2)n2ccc(C(=O)NCc3ccccc3)cc12	EC50	p24 / antigen	-	H9	-	-	50.9 µM
Cc1nnc(C(=O)NC(C)(C)c2nc(C(=O)NCc3ccc(F)cc3)c(O)c(=O)n2C)o1	EC50	GFP	NL4-3	CEM-GXR	-	-	0.005 µM
C(=N\Nc1nc(-c2ccccc2)cs1)/c1ccccn1	EC50	MTT	IIIB	MT-4	-	-	>2.97 µM
CC(C)C1=C2[C@H]3CC[C@@H]4[C@@]5(C)CC[C@H](OC(=O)[C@H]6C[C@@H](C(=O)O)C6(C)C)C(C)(C)[C@@H]5CC[C@@]4(C)[C@]3(C)CC[C@@]2(CC(=O)NCc2nc3ccccc3[nH]2)CC1=O	EC50	p24 / ELISA	92HT599	MT-2	-	-	<1 µM
Nc1n[nH]c2ccc(CN3C(=O)N(CC4CCC4)[C@H](Cc4ccccc4)[C@H](O)[C@@H](O)[C@H]3Cc3ccccc3)cc12	EC90	-	RF	MT-2	-	PR-S184V	0.53 µM
COC(=O)CCNP(=O)(OC[C@@H]1C=C[C@H](n2cc(C)c(=O)[nH]c2=O)O1)Oc1ccccc1	EC50	cytopathic effect / trypan blue	IIIB	MT-4	-	-	1.34 µM
N#Cc1ccc(-c2csc(N/N=C/c3ccncc3)n2)cc1	EC50	MTT	IIIB	MT-4	-	-	>53.1 µM
Cc1ccc(NC(=O)NCCSCc2ccc(CNC(C)C)o2)cc1Cl	EC50	RT activity	-	MAGI	-	-	>100 µM
Cc1occc1C(=S)Nc1ccc(Cl)c(C(=O)OCC2CC2)c1	EC50	cytopathic effect / XTT	4xAZT(RT-D67N K70R T215Y K219Q)	CEM + CEM-SS	-	RT-D67N K70R T215Y K219Q	0.04 µM
CC(=O)CCCCn1c(=O)c2c(ncn2C)n(C)c1=O	EC50	RT activity	-	PBMC	-	-	<250 µM
Fc1cccc(-c2nc(-c3nnc(C45CCC6CC(CC4C6)C5)o3)cs2)c1	EC50	MTT	IIIB	MT-4	-	-	>125 µM
CN(C)C(=O)C(=O)NC12CCC(CC1)Cn1c2nc(C(=O)NCc2ccccc2C(F)(F)F)c(O)c1=O	EC50	luciferase	NL4-3	MT-2	pseudotyped	(delta)nef	<0.01 µM
Cc1occc1C(=S)Nc1ccc(Cl)c(/C=N/OC(C)(C)C)c1	EC50	cytopathic effect / XTT	NL4-3	CEM + CEM-SS	-	RT-L74V	0.07 µM
C=Cc1cn([C@H]2C=C[C@@H](OCP(=O)(O)O)O2)c(=O)[nH]c1=O	EC50	cytopathic effect / XTT	IIIB	CEM	-	-	>100 µg/mL
COc1ccc(/C=N/Nc2nc(-c3ccc(Cl)cc3)cs2)cc1	EC50	MTT	IIIB	MT-4	-	-	>125 µM
CCc1nc(CO)n(CC)c1Oc1cc(C#N)cc(C#N)c1	EC50	β-galactosidase / reporter gene	NL4-3	HeLaP4	-	-	0.116 µM
CC(C)C1=C2[C@H]3CC[C@@H]4[C@@]5(C)CC[C@H](OC(=O)[C@H]6C[C@@H](C(=O)O)C6(C)C)C(C)(C)[C@@H]5CC[C@@]4(C)[C@]3(C)CC[C@@]2(CCNC(=O)[C@@H]2CCCN2)CC1=O	EC50	p24 / ELISA	92HT599	MT-2	-	-	<1 µM
C/C(=N\Nc1nc(-c2ccc([N+](=O)[O-])cc2)cs1)c1ccc(Cl)c(Cl)c1	EC50	MTT	IIIB	MT-4	-	-	>14.07 µM
O=C(Cc1ccccc1)Nn1c(-c2ccccc2)nc2ccccc2c1=O	EC50	cytopathic effect / XTT	RF	CEM + CEM-SS	-	-	61 µM
O=C(NCc1ccc(F)cc1)c1nc2n(c(=O)c1O)CC1CCC2(NC(=O)C2CCCO2)CC1	EC50	luciferase	NL4-3	MT-2	pseudotyped	(delta)nef	<0.01 µM
O=c1ccn(C[C@H]2CCC[C@H]2CO)c(=O)[nH]1	EC50	cytopathic effect	-	CEM	-	-	>100 µg/mL
Cc1cc(C(=O)NC(C)(C)CNC(=O)C[C@@]23CC[C@]4(C)[C@H](CC[C@@H]5[C@@]6(C)CC[C@H](OC(=O)[C@H]7C[C@@H](C(=O)O)C7(C)C)C(C)(C)[C@@H]6CC[C@]54C)C2=C(C(C)C)C(=O)C3)n[nH]1	EC50	p24 / ELISA	92HT599	MT-2	-	-	<1 µM
CCCc1nc(C)n(CC)c1Oc1cc(C#N)cc(C#N)c1	EC50	β-galactosidase / reporter gene	NL4-3	HeLaP4	-	-	0.013 µM
Cc1ccccc1-c1nc(-c2nnc(C34CCC5CC(CC3C5)C4)o2)cs1	EC50	MTT	IIIB	MT-4	-	-	>10.5 µM
CC(=O)NC(=S)NC12CCC(CC1)Cn1c2nc(C(=O)NCc2ccc(F)c(C)c2)c(O)c1=O	EC50	luciferase	NL4-3	MT-2	pseudotyped	(delta)nef	<0.01 µM
Cc1ccsc1C(=S)Nc1ccc(Cl)c(/C=N/OC(C)C)c1	EC50	cytopathic effect / XTT	RF	CEM + CEM-SS	-	-	0.071 µM
C[C@H](Cc1ccc(OC(=O)CN(C)C)c(OC(=O)CN(C)C)c1)[C@@H](C)Cc1ccc(OC(=O)CN(C)C)c(OC(=O)CN(C)C)c1	EC50	p24	AZT-resistant RTMF	H9	-	-	12 µM
C=CCO/N=C/c1cc(NC(=S)c2ccoc2C)ccc1Cl	EC50	cytopathic effect / XTT	4xAZT/L100I(RT-D67N K70R T215Y K219Q L100I)	CEM + CEM-SS	-	RT-D67N K70R L100I T215Y K219Q	1.3 µM
Cc1cn([C@H]2C[C@H](N=[N+]=[N-])[C@@H](CO)O2)c(=O)[nH]c1=O	EC50	p24	IIIB	C8166	-	-	0.00194 µg/mL
Cc1ccnc2c1NC(=O)c1cccnc1N2C1CC1	EC50	MTT	IIIB	MT-4	-	-	0.24 µg/mL
C[C@@]1(O)[C@H](O)[C@@H](CO)O[C@H]1n1cnc2c(N)nc(-n3cc([Si](C)(C)C)nn3)nc21	EC90	ELISA	LAI	-	-	-	>100 µM
CC=CCOc1cc(NC(=S)c2ccoc2C)ccc1OC	EC50	cytopathic effect / XTT	NL4-3	CEM + CEM-SS	-	RT-V179D	0.6 µM
C#Cc1ccc(Nc2nccc(Oc3c(C)cc(-c4cn(CCc5cccs5)nn4)cc3C)n2)cc1	EC50	MTT	IIIB	MT-4	-	F227L and V106A	>5.53 µM
Clc1ccc(-c2nc(-c3nnc(C45CCC6CC(CC4C6)C5)o3)cs2)cc1	EC50	MTT	IIIB	MT-4	-	-	>125 µM
Nc1ncnc2c1ncn2[C@@H]1C[C@H](O)[C@@H](O)[C@H]1O	EC50	syncytia	IIIB	CEM	-	-	>0.16 µg/mL
Nc1n[nH]c2ccc(CN3C(=O)N(CC4CC4)[C@H](Cc4ccccc4)[C@H](O)[C@@H](O)[C@H]3Cc3ccccc3)cc12	EC90	-	RF	MT-2	-	-	0.114 µM
COc1ccccc1CCNC(=S)NC(=O)c1csc(-c2ccccc2)n1	EC50	MTT	IIIB	MT-4	-	-	>11.72 µM
CCc1nc(C)n(CC)c1Oc1cc(Cl)cc(C#N)c1	EC50	β-galactosidase / reporter gene	NL4-3	HeLaP4	-	-	0.003 µM
O=c1[nH]c(=O)n([C@H]2C=C[C@@H](OCP(=O)(O)O)O2)cc1I	EC50	cytopathic effect / XTT	IIIB	MT-2	-	-	>100 µg/mL
S=c1[nH]c(=S)c2c3c(sc2[nH]1)CCCC3	EC50	absorbance	-	CEM	-	-	>6.5 µM
CC(C)CN(C[C@@H](O)[C@H](Cc1ccccc1)NC(=O)[C@@H](NC(=O)C1CCCN1)C(C)(C)C)S(=O)(=O)c1ccc2c(c1)OCO2	EC50	-	-	CEM + CEM-SS	-	-	0.012 µM
C[C@@]1(O)[C@H](O)[C@@H](CO)O[C@H]1n1cnc2c(=O)[nH]nc(N)c21	EC90	ELISA	LAI	-	-	-	>100 µM
Cn1cc(C(=O)O)c(=O)c2cc(F)c(N3CC=C(c4ccccc4)CC3)c(C(F)(F)F)c21	EC50	p24	IIIB	U-937	-	-	0.018 µM
COc1ccc(S(=O)(=O)N(CC(C)C)C[C@@H](O)[C@H](Cc2ccccc2)NC(=O)Cn2cc(F)c(=O)[nH]c2=O)cc1	EC50	luciferase	NL4-3	TZM-bl	-	-	1.07 µM
COc1cc(-c2ccc(N=Nc3ccc4c(S(=O)(=O)O)cc(S(=O)(=O)O)c(N)c4c3O)c(OC)c2)ccc1N=Nc1ccc2c(S(=O)(=O)O)cc(S(=O)(=O)O)c(N)c2c1O	EC50	cytopathic effect / XTT	LAV	CEM + CEM-SS	-	-	0.9 µM
CC(C)CN(C[C@@H](O)[C@H](Cc1cc(F)cc(F)c1)NC(=O)OC1C[C@@H]2COC3OC1C[C@@H]32)S(=O)(=O)c1ccc2nc(NC3CC3)sc2c1	EC50	ELISA	NL4-3	MT-4	-	-	0.000034 µM
N#Cc1ccc(-c2csc(N/N=C/c3cccnc3)n2)cc1	EC50	MTT	IIIB	MT-4	-	-	>7.73 µM
O=C(NCc1c(F)cc(F)cc1F)c1cn2c(c(O)c1=O)C(=O)N1[C@H]3CC[C@H](C3)O[C@@H]1C2	EC50	GFP	NL4-3	CEM-GXR	-	T97A E138K G140S Q148H	0.0126 µM
Cc1cn([C@H]2C[C@H](N=[N+]=[N-])[C@@H](CO)O2)c(=O)[nH]c1=O	EC50	cytopathic effect / MTT	IIIB X4	MT-4	-	-	0.018 µM
Cc1cn([C@H]2CC[C@@H](OCC(=O)O)C2)c(=O)[nH]c1=O	EC50	syncytia	IIIB	CEM	-	-	>250 µM
CC(C)C1=C2[C@H]3CC[C@@H]4[C@@]5(C)CC[C@H](OC(=O)[C@H]6C[C@@H](C(=O)O)C6(C)C)C(C)(C)[C@@H]5CC[C@@]4(C)[C@]3(C)CC[C@@]2(CCN[C@H](C)c2ccccc2)CC1=O	EC50	p24 / ELISA	92HT599	MT-2	-	-	<1 µM
O=c1[nH]c(=O)n([C@H]2CCC[C@H]2CO)cc1I	EC50	cytopathic effect	-	CEM	-	-	12.5 µg/mL

Two numbers with a dash give a range or band. ECn is the concentration giving n% inhibition of infection, replication or growth. Blank or dashed fields: not listed here.